We go through twelve compounds from patent US20220324835A1 (Nurix Therapeutics, Inc., priority 2018, published 2022).

Each structure is given as a SMILES string.

Assay [1] deals with in vitro generated exhausted human T-cells. Briefly: Exhausted T-cell activation assessed by cytokine secretion (autologous SEB/myeloid cell model). The note with it: exhausted T-cells stimulated with SEB and autologous myeloid cells, 3 days.
Assay [2] shares this test system. Conditions: exhausted T-cells stimulated with SEB and autologous myeloid cells; for CTLA4 CD4, fold change over baseline: CD4 T-cells; for CTLA4 CD8, fold change over baseline: CD8 T-cells.

As to `C[C@H](Sc1nncn1C)c1cccc(NC(=O)c2cc(C(=O)N3CC[C@H](O)C3)ccn2)c1` [Compound 140, 4-[[(3S)-3-hydroxypyrrolidin-1-yl]carbonyl]-N-[3-[(1S)-1-[(4-methyl-4H-1,2,4-triazol-3-yl)sulfanyl]ethyl]phenyl]pyridine-2-carboxamide], in assay [1], the “Cytokines GM-CSF, fold change over baseline” value (“Cytokines GM-CSF, fold change” below) is “A (A indicates ≤1.40)”; the “Cytokines IFNγ, fold change over baseline” value (from here on “Cytokines IFNγ, fold change”) is “A (A indicates ≤1.40)”; the “Cytokines IL-2, fold change over baseline” value (“Cytokines IL-2, fold change” for short) is listed as “A (A indicates ≤2.50)”. Moreover, in assay [2], the “CTLA4 CD4, fold change over baseline” value is “A (A indicates ≤1.40)” and the “CTLA4 CD8, fold change over baseline” value is reported as “A (A indicates ≤1.40)”.
For `C[C@H](Cc1nncn1C)c1cccc(NC(=O)c2cccc(C(F)(F)F)n2)c1` [Compound 183a, (R)-N-(3-(1-(4-methyl-4H-1,2,4-triazol-3-yl)propan-2-yl)phenyl)-6-(trifluoromethyl)picolinamide], in assay [1], the “Cytokines GM-CSF, fold change” value is on record as “C (C indicates >1.61)”; the “Cytokines IFNγ, fold change” value is “B (B indicates 1.41-1.60)”; the “Cytokines IL-2, fold change” value was “A (A indicates ≤2.50)”. In assay [2], the “CTLA4 CD4, fold change over baseline” value was “C (C indicates >1.61)” and the “CTLA4 CD8, fold change over baseline” value is given as “C (C indicates >1.61)”.
`Cc1cc(C(=O)Nc2cccc([C@H](C)Cc3nncn3C)c2)nc(C2CC2)n1` [Compound 195, (R)-2-cyclopropyl-6-methyl-N-(3-(1-(4-methyl-4H-1,2,4-triazol-3-yl)propan-2-yl)phenyl)pyrimidine-4-carboxamide]: in assay [1], the “Cytokines GM-CSF, fold change” value is on record as “C (C indicates >1.61)”; the “Cytokines IFNγ, fold change” value is “B (B indicates 1.41-1.60)”; the “Cytokines IL-2, fold change” value is on record as “A (A indicates ≤2.50)”. For the same compound, in assay [2], the “CTLA4 CD4, fold change over baseline” value is reported as “C (C indicates >1.61)” and the “CTLA4 CD8, fold change over baseline” value was “C (C indicates >1.61)”.
As to `C[C@H](Cc1nncn1C)c1cccc(NC(=O)c2cccc(CCO)n2)c1` [Compound 202, 6-(2-hydroxyethyl)-N-[3-[(2R)-1-(4-methyl-4H-1,2,4-triazol-3-yl)propan-2-yl]phenyl]pyridine-2-carboxamide], in assay [1], the “Cytokines GM-CSF, fold change” value is recorded as “A (A indicates ≤1.40)”; the “Cytokines IFNγ, fold change” value was “A (A indicates ≤1.40)”; the “Cytokines IL-2, fold change” value is on record as “A (A indicates ≤2.50)”. Also, in assay [2], the “CTLA4 CD4, fold change over baseline” value is on record as “A (A indicates ≤1.40)” and the “CTLA4 CD8, fold change over baseline” value is reported as “A (A indicates ≤1.40)”.
With `C[C@H](Cc1nncn1C)c1cccc(N2Cc3c(cccc3C(F)(F)F)C2=O)c1` [Compound 255a, (R)-2-(3-(1-(4-methyl-4H-1,2,4-triazol-3-yl)propan-2-yl)phenyl)-4-(trifluoromethyl)isoindolin-1-one], in assay [1], the “Cytokines GM-CSF, fold change” value is reported as “A (A indicates ≤1.40)”; the “Cytokines IFNγ, fold change” value was “A (A indicates ≤1.40)”; the “Cytokines IL-2, fold change” value is given as “A (A indicates ≤2.50)”. For the same compound, in assay [2], the “CTLA4 CD4, fold change over baseline” value is on record as “B (B indicates 1.41-1.60)” and the “CTLA4 CD8, fold change over baseline” value was “B (B indicates 1.41-1.60)”.
Take `C[C@H](Cc1nncn1C)c1cccc(N2Cc3c(ccnc3C3CC3)C2=O)c1` [Compound 257, 4-cyclopropyl-2-[3-[(1R)-1-methyl-2-(4-methyl-1,2,4-triazol-3-yl)ethyl]phenyl]-3H-pyrrolo[3,4-c]pyridin-1-one]: in assay [1], the “Cytokines GM-CSF, fold change” value was “A (A indicates ≤1.40)”; the “Cytokines IFNγ, fold change” value is given as “C (C indicates >1.61)”; the “Cytokines IL-2, fold change” value was “A (A indicates ≤2.50)”. In assay [2], the “CTLA4 CD4, fold change over baseline” value was “A (A indicates ≤1.40)” and the “CTLA4 CD8, fold change over baseline” value is recorded as “A (A indicates ≤1.40)”.
As to `Cn1cnnc1[C@@H]1C[C@@H]1c1cccc(N2Cc3c(cccc3C(F)(F)F)C2=O)c1` [Compound 282, 2-(3-((1S,2R)-2-(4-methyl-4H-1,2,4-triazol-3-yl)cyclopropyl)phenyl)-4-(trifluoromethyl)isoindolin-1-one], in assay [1], the “Cytokines GM-CSF, fold change” value is reported as “A (A indicates ≤1.40)”; the “Cytokines IFNγ, fold change” value is reported as “B (B indicates 1.41-1.60)”; the “Cytokines IL-2, fold change” value was “B (B indicates 2.51-3.00)”. Besides, in assay [2], the “CTLA4 CD4, fold change over baseline” value is listed as “A (A indicates ≤1.40)” and the “CTLA4 CD8, fold change over baseline” value was “A (A indicates ≤1.40)”.
`C[C@H](Cc1nncn1C)c1ccnc(NC(=O)c2cccc(C(F)(F)F)n2)c1` [Compound 302, (R)-N-(4-(1-(4-methyl-4H-1,2,4-triazol-3-yl)propan-2-yl)pyridin-2-yl)-6-(trifluoromethyl)picolinamide]: in assay [1], the “Cytokines GM-CSF, fold change” value is recorded as “A (A indicates ≤1.40)”; the “Cytokines IFNγ, fold change” value is “A (A indicates ≤1.40)”; the “Cytokines IL-2, fold change” value was “A (A indicates ≤2.50)”. Besides, in assay [2], the “CTLA4 CD4, fold change over baseline” value is reported as “A (A indicates ≤1.40)” and the “CTLA4 CD8, fold change over baseline” value is reported as “A (A indicates ≤1.40)”.
`C[C@H](Cc1nncn1C)c1cccc(NC(=O)c2n[nH]c3c2CCC3)c1` [Compound 313, (R)-N-(3-(1-(4-Methyl-4H-1,2,4-triazol-3-yl)propan-2-yl)phenyl)-1,4,5,6-tetrahydrocyclopenta[c]pyrazole-3-carboxamide]: in assay [1], the “Cytokines GM-CSF, fold change” value is “A (A indicates ≤1.40)”; the “Cytokines IFNγ, fold change” value is “A (A indicates ≤1.40)”; the “Cytokines IL-2, fold change” value is given as “A (A indicates ≤2.50)”. Also, in assay [2], the “CTLA4 CD4, fold change over baseline” value was “A (A indicates ≤1.40)” and the “CTLA4 CD8, fold change over baseline” value is reported as “A (A indicates ≤1.40)”.
In the case of `Cc1cc(C(=O)Nc2cccc([C@@H](C)Cc3nncn3C)c2)nc(C2CC2)n1` [Compound 325, (S)-2-Cyclopropyl-6-methyl-N-(3-(1-(4-methyl-4H-1,2,4-triazol-3-yl)propan-2-yl)phenyl)pyrimidine-4-carboxamide], in assay [1], the “Cytokines GM-CSF, fold change” value is reported as “A (A indicates ≤1.40)”; the “Cytokines IFNγ, fold change” value is “A (A indicates ≤1.40)”; the “Cytokines IL-2, fold change” value was “A (A indicates ≤2.50)”. Moreover, in assay [2], the “CTLA4 CD4, fold change over baseline” value is listed as “A (A indicates ≤1.40)” and the “CTLA4 CD8, fold change over baseline” value was “A (A indicates ≤1.40)”.
With `C[C@H](Cc1nncn1C)c1cccc(NC(=O)c2nc(C(F)(F)F)c[nH]2)c1` [Compound 326, (R)-N-(3-(1-(4-methyl-4H-1,2,4-triazol-3-yl)propan-2-yl)phenyl)-4-(trifluoromethyl)-1H-imidazole-2-carboxamide], in assay [1], the “Cytokines GM-CSF, fold change” value was “A (A indicates ≤1.40)”; the “Cytokines IFNγ, fold change” value was “C (C indicates >1.61)”; the “Cytokines IL-2, fold change” value is given as “C (C indicates >3.01)”. Moreover, in assay [2], the “CTLA4 CD4, fold change over baseline” value is given as “A (A indicates ≤1.40)” and the “CTLA4 CD8, fold change over baseline” value is given as “A (A indicates ≤1.40)”.
On to `Cn1cnnc1C(F)(F)[C@](C)(F)c1cccc(N2Cc3c(cc(N4CCNCC4)cc3C(F)(F)F)C2=O)c1` [Compound 442, (R)-6-(Piperazin-1-yl)-2-(3-(1,1,2-trifluoro-1-(4-methyl-4H-1,2,4-triazol-3-yl)propan-2-yl)phenyl)-4-(trifluoromethyl)isoindolin-1-one], for which, in assay [1], the “Cytokines GM-CSF, fold change” value is reported as “A (A indicates ≤1.40)”; the “Cytokines IFNγ, fold change” value is given as “B (B indicates 1.41-1.60)”; the “Cytokines IL-2, fold change” value is on record as “C (C indicates >3.01)”.
